PubChem BioAssay AID1259414 | Drosophila RNAi Screening Center | 2018
The screen tested about 24,000 reagents; this is a random part of those that have a named target and a result. In the full data, about 1,210 (5%) got an active call. 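Inactive calls also include excluded dsRNAs with several or no targets, genes unexpressed in JW18, and well A1, regardless of score.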 Reagents against one gene are numbered here. Reagent sequences are not shown.

- Assay: 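Genome-wide screen for host control of endosymbiont load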 (primary screen)
- System: Drosophila JW18 cells infected with Wolbachia
- Reagents: long dsRNA against Drosophila genes, 0.25 µg dsRNA per well of a 384-well plate
- Timing: 5 days
- Treatment: cells persistently infected with Wolbachia before knock-down; no added drug
- Measured: 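Automated imaging of bacterial rRNA staining divided by host cell count, reported as plate-normalised robust z-score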
- Reading the numbers: Wolbachia per cell robust z: higher = more Wolbachia per host cell than the plate typical
- Rule for the call: 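Hit when robust z is 1.5 or more, or -1.5 or less, in at least two of three replicates; excludes dsRNAs with several or no targets, genes not expressed in JW18 and well A1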

Depletion of CG9849 (GeneID 37647) gave: Wolbachia per cell robust z, rep 1 = -0.645; Wolbachia per cell robust z, rep 2 = -5.31; Wolbachia per cell robust z, rep 3 = -0.487; inactive. With knock-down of Gmd (GeneID 33716) #1, the record shows Wolbachia per cell robust z, rep 1 = 0.784; Wolbachia per cell robust z, rep 2 = -0.883; Wolbachia per cell robust z, rep 3 = -1.51; inactive. Silencing of Gmd (GeneID 33716) #2 gave: Wolbachia per cell robust z, rep 1 = -0.048; Wolbachia per cell robust z, rep 2 = -0.516; Wolbachia per cell robust z, rep 3 = 0.286; inactive. With knock-down of CG15111 (GeneID 37200) the results were Wolbachia per cell robust z, rep 1 = -0.853; Wolbachia per cell robust z, rep 2 = -0.472; Wolbachia per cell robust z, rep 3 = -1.1; inactive. For gcm2 (GeneID 34280) #1, the entry reads Wolbachia per cell robust z, rep 1 = 0.302; Wolbachia per cell robust z, rep 2 = -1.16; Wolbachia per cell robust z, rep 3 = -0.178; inactive. Against gcm2 (GeneID 34280) #2, the entry reads Wolbachia per cell robust z, rep 1 = -6.51; Wolbachia per cell robust z, rep 2 = -1.12; Wolbachia per cell robust z, rep 3 = -0.724; inactive.

For CG4577 (GeneID 33291) the deposit lists Wolbachia per cell robust z, rep 1 = -8.58; Wolbachia per cell robust z, rep 2 = 0.15; Wolbachia per cell robust z, rep 3 = 0.136; inactive. CG7460 (GeneID 39973) #1 gave Wolbachia per cell robust z, rep 1 = 0.123; Wolbachia per cell robust z, rep 2 = -0.824; Wolbachia per cell robust z, rep 3 = -0.876; inactive. CG7460 (GeneID 39973) #2 scored Wolbachia per cell robust z, rep 1 = -0.932; Wolbachia per cell robust z, rep 2 = -0.305; Wolbachia per cell robust z, rep 3 = -0.927; inactive. With knock-down of Dronc (GeneID 39173), the screen gave Wolbachia per cell robust z, rep 1 = 0.807; Wolbachia per cell robust z, rep 2 = -7; Wolbachia per cell robust z, rep 3 = 1.14; inactive. For Pldn (GeneID 39315) #1, the entry reads Wolbachia per cell robust z, rep 1 = -0.337; Wolbachia per cell robust z, rep 2 = 0.16; Wolbachia per cell robust z, rep 3 = -1.75; inactive. Against Pldn (GeneID 39315) #2, the entry reads Wolbachia per cell robust z, rep 1 = -0.566; Wolbachia per cell robust z, rep 2 = 0.28; Wolbachia per cell robust z, rep 3 = 0.485; inactive.

A stretch from the list above, as a working copy:
gcm2 (GeneID 34280) #2 → Wolbachia per cell robust z, rep 1: -6.51; Wolbachia per cell robust z, rep 2: -1.12; Wolbachia per cell robust z, rep 3: -0.724; activity call: inactive
CG4577 (GeneID 33291) → Wolbachia per cell robust z, rep 1: -8.58; Wolbachia per cell robust z, rep 2: 0.15; Wolbachia per cell robust z, rep 3: 0.136; activity call: inactive

The results go on.
Against APC7 (GeneID 31594) #1 the deposit lists Wolbachia per cell robust z, rep 1 = -0.188; Wolbachia per cell robust z, rep 2 = -0.825; Wolbachia per cell robust z, rep 3 = 0.753; inactive. APC7 (GeneID 31594) #2 scored Wolbachia per cell robust z, rep 1 = -0.0771; Wolbachia per cell robust z, rep 2 = -0.935; Wolbachia per cell robust z, rep 3 = -0.0153; inactive. Liprin-beta (GeneID 39524) #1 gave Wolbachia per cell robust z, rep 1 = 0.661; Wolbachia per cell robust z, rep 2 = 0.898; Wolbachia per cell robust z, rep 3 = 1.12; inactive. With knock-down of Liprin-beta (GeneID 39524) #2, the screen gave Wolbachia per cell robust z, rep 1 = -4.74; Wolbachia per cell robust z, rep 2 = -0.462; Wolbachia per cell robust z, rep 3 = -1.07; inactive. Depletion of Liprin-beta (GeneID 39524) #3 gave: Wolbachia per cell robust z, rep 1 = 0.0729; Wolbachia per cell robust z, rep 2 = 0.32; Wolbachia per cell robust z, rep 3 = -0.155; inactive. After knock-down of Pex7 (GeneID 38994), the screen gave Wolbachia per cell robust z, rep 1 = 0.936; Wolbachia per cell robust z, rep 2 = 1.3; Wolbachia per cell robust z, rep 3 = 0.951; inactive.

Against ced-6 (GeneID 35971) #1, the entry reads Wolbachia per cell robust z, rep 1 = -1.25; Wolbachia per cell robust z, rep 2 = -0.723; Wolbachia per cell robust z, rep 3 = -0.496; inactive. ced-6 (GeneID 35971) #2 scored Wolbachia per cell robust z, rep 1 = 0.829; Wolbachia per cell robust z, rep 2 = 0.784; Wolbachia per cell robust z, rep 3 = -3.79; inactive. Against Toll-4 (GeneID 34235), the values are Wolbachia per cell robust z, rep 1 = -0.218; Wolbachia per cell robust z, rep 2 = 0.0808; Wolbachia per cell robust z, rep 3 = 0.729; inactive. Knock-down of Ggt-1 (GeneID 32839) #1 resulted in: Wolbachia per cell robust z, rep 1 = -5.09; Wolbachia per cell robust z, rep 2 = -1.99; Wolbachia per cell robust z, rep 3 = 0.0167; inactive. For Ggt-1 (GeneID 32839) #2 the deposit lists Wolbachia per cell robust z, rep 1 = 0.268; Wolbachia per cell robust z, rep 2 = 0.185; Wolbachia per cell robust z, rep 3 = 0.912; inactive. Nep3 (GeneID 33005) #1 showed Wolbachia per cell robust z, rep 1 = 0.452; Wolbachia per cell robust z, rep 2 = -0.241; Wolbachia per cell robust z, rep 3 = 0.452; inactive.

For Nep3 (GeneID 33005) #2 the deposit lists Wolbachia per cell robust z, rep 1 = -5.52; Wolbachia per cell robust z, rep 2 = 1.01; Wolbachia per cell robust z, rep 3 = 0.431; inactive.
